Results deposited as PubChem BioAssay AID1259414 (Drosophila RNAi Screening Center, 2018).
The deposit covers about 24,000 reagents; below is an unselected part of those that have a named target and a result. In the full data, about 1,210 (5%) got an active call. 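Inactive calls also include excluded dsRNAs with several or no targets, genes unexpressed in JW18, and well A1, regardless of score.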 A plus sign joins genes that one reagent is predicted to hit.

Test: 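Genome-wide screen for host control of endosymbiont load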 (primary screen)
Cell system: Drosophila JW18 cells infected with Wolbachia
Reagents: long dsRNA against Drosophila genes, 0.25 µg dsRNA per well of a 384-well plate
Time to read-out: 5 days
Treatment: cells persistently infected with Wolbachia before knock-down; no added drug
Measured: 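Imaged fluorescence in situ signal for Wolbachia 23S rRNA per DAPI-counted host cell, given as a robust z-score within each plate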
Direction: Wolbachia per cell robust z: higher = more Wolbachia per host cell than the plate typical
Rule for the call: 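Active if absolute robust z reaches 1.5 in two or more of three replicates, leaving out multi- or no-target dsRNAs, genes unexpressed in JW18 and A1 wells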

The first 3 entries, ahead of the listing:
CG14860 [DRSC14983]
- Wolbachia per cell robust z, rep 1: 0.141
- Wolbachia per cell robust z, rep 2: -0.699
- Wolbachia per cell robust z, rep 3: 0.18
- call: inactive

CG14860 [DRSC28932]
- Wolbachia per cell robust z, rep 1: 0.418
- Wolbachia per cell robust z, rep 2: -0.675
- Wolbachia per cell robust z, rep 3: 0.0648
- call: inactive

Rab4 [DRSC07524]
- Wolbachia per cell robust z, rep 1: -0.251
- Wolbachia per cell robust z, rep 2: 0.661
- Wolbachia per cell robust z, rep 3: 1.5
- call: inactive

Main list, from the first entry:
CG14860 [DRSC14983]
- Wolbachia per cell robust z, rep 1: 0.141
- Wolbachia per cell robust z, rep 2: -0.699
- Wolbachia per cell robust z, rep 3: 0.18
- call: inactive

CG14860 [DRSC28932]
- Wolbachia per cell robust z, rep 1: 0.418
- Wolbachia per cell robust z, rep 2: -0.675
- Wolbachia per cell robust z, rep 3: 0.0648
- call: inactive

Rab4 [DRSC07524]
- Wolbachia per cell robust z, rep 1: -0.251
- Wolbachia per cell robust z, rep 2: 0.661
- Wolbachia per cell robust z, rep 3: 1.5
- call: inactive

Tdc2 [DRSC04999]
- Wolbachia per cell robust z, rep 1: -0.933
- Wolbachia per cell robust z, rep 2: -9.08
- Wolbachia per cell robust z, rep 3: 0.582
- call: inactive

Tdc2 [DRSC28952]
- Wolbachia per cell robust z, rep 1: -0.462
- Wolbachia per cell robust z, rep 2: 0.232
- Wolbachia per cell robust z, rep 3: -0.0737
- call: inactive

Tsp42Ej [DRSC06113]
- Wolbachia per cell robust z, rep 1: 0.362
- Wolbachia per cell robust z, rep 2: -3.31
- Wolbachia per cell robust z, rep 3: 0.735
- call: inactive

Tsp42Ej [DRSC28269]
- Wolbachia per cell robust z, rep 1: -0.512
- Wolbachia per cell robust z, rep 2: -1.34
- Wolbachia per cell robust z, rep 3: -0.194
- call: inactive

Lsp1beta [DRSC00757]
- Wolbachia per cell robust z, rep 1: -0.852
- Wolbachia per cell robust z, rep 2: -8.51
- Wolbachia per cell robust z, rep 3: 1.16
- call: inactive

Lsp1beta [DRSC24940]
- Wolbachia per cell robust z, rep 1: -0.0889
- Wolbachia per cell robust z, rep 2: -0.919
- Wolbachia per cell robust z, rep 3: -1.65
- call: inactive

CG11327 [DRSC02146]
- Wolbachia per cell robust z, rep 1: 0.0549
- Wolbachia per cell robust z, rep 2: -0.00158
- Wolbachia per cell robust z, rep 3: 0.201
- call: inactive

CG11327 [DRSC41525]
- Wolbachia per cell robust z, rep 1: -0.819
- Wolbachia per cell robust z, rep 2: -0.148
- Wolbachia per cell robust z, rep 3: -2.49
- call: inactive

Tk [DRSC14954]
- Wolbachia per cell robust z, rep 1: 0.676
- Wolbachia per cell robust z, rep 2: 1.27
- Wolbachia per cell robust z, rep 3: -0.208
- call: inactive

Tk [DRSC21972]
- Wolbachia per cell robust z, rep 1: 0.676
- Wolbachia per cell robust z, rep 2: -0.643
- Wolbachia per cell robust z, rep 3: 0.94
- call: inactive

Tk [DRSC27140]
- Wolbachia per cell robust z, rep 1: 0.307
- Wolbachia per cell robust z, rep 2: 0.387
- Wolbachia per cell robust z, rep 3: 1.11
- call: inactive

Eno [DRSC00750]
- Wolbachia per cell robust z, rep 1: 0.935
- Wolbachia per cell robust z, rep 2: 0.139
- Wolbachia per cell robust z, rep 3: 1.09
- call: inactive

kek4 [DRSC03220]
- Wolbachia per cell robust z, rep 1: -0.452
- Wolbachia per cell robust z, rep 2: -1.49
- Wolbachia per cell robust z, rep 3: -0.902
- call: inactive

RpL36 [DRSC18708]
- Wolbachia per cell robust z, rep 1: 3.22
- Wolbachia per cell robust z, rep 2: 2.93
- Wolbachia per cell robust z, rep 3: 4
- call: active

CG13599 [DRSC14602]
- Wolbachia per cell robust z, rep 1: -2.71
- Wolbachia per cell robust z, rep 2: 0.279
- Wolbachia per cell robust z, rep 3: -0.762
- call: inactive

iotaTry [DRSC07634]
- Wolbachia per cell robust z, rep 1: -0.813
- Wolbachia per cell robust z, rep 2: -1.11
- Wolbachia per cell robust z, rep 3: -0.225
- call: inactive

achi + vis [DRSC07277]
- Wolbachia per cell robust z, rep 1: -0.501
- Wolbachia per cell robust z, rep 2: -0.456
- Wolbachia per cell robust z, rep 3: -0.757
- call: inactive

BubR1 [DRSC04838]
- Wolbachia per cell robust z, rep 1: -2.98
- Wolbachia per cell robust z, rep 2: -1.11
- Wolbachia per cell robust z, rep 3: -1
- call: inactive

CG12723 [DRSC19499]
- Wolbachia per cell robust z, rep 1: 1.12
- Wolbachia per cell robust z, rep 2: -2.17
- Wolbachia per cell robust z, rep 3: 0.569
- call: inactive

CG12723 [DRSC26290]
- Wolbachia per cell robust z, rep 1: -1.11
- Wolbachia per cell robust z, rep 2: 0.666
- Wolbachia per cell robust z, rep 3: 0.961
- call: inactive

Rsph1 [DRSC02864]
- Wolbachia per cell robust z, rep 1: -0.359
- Wolbachia per cell robust z, rep 2: -0.644
- Wolbachia per cell robust z, rep 3: 0.154
- call: inactive

Rsph1 [DRSC26510]
- Wolbachia per cell robust z, rep 1: -0.185
- Wolbachia per cell robust z, rep 2: -2.27
- Wolbachia per cell robust z, rep 3: -0.882
- call: inactive
